Assay: peptide synthesis
Settings: conjugation step, analytical RP-HPLC, several disulfide bridges, sequence written open

N-Terminally PEGylated-Des-Arg1-ShK
crude HPLC purity: approximately 58% | final HPLC purity: 85%

Reference: patent US7803769B2 (priority 2006, dated 2010)
